Structure probing of HIV-1 leader RNA with DMS

Sequence of the HIV-1 NL4-3 5' RNA, positions 1 to 437, as numbered in the source:
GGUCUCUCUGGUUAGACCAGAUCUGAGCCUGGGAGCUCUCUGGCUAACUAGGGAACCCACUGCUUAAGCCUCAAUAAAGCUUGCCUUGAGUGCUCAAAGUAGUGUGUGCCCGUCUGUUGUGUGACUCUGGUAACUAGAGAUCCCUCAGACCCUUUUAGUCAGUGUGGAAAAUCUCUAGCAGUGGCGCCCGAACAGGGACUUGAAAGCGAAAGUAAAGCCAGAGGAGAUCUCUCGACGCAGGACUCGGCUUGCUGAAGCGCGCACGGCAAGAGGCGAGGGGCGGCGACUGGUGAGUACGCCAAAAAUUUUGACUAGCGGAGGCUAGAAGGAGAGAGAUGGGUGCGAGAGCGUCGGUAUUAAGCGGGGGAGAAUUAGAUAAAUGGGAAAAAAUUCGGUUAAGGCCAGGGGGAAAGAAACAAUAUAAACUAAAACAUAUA

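Mutant RNA libraries with 1G, 2G or 3G starts, with or without cap, were folded at 37 °C for 30 min. Monomer and dimer bands were cut from native gels after folding in high salt (300 mM KCl, 5 mM MgCl2) or low salt (40 mM KCl, 0.1 mM MgCl2). Gel slices were treated with 170 mM dimethyl sulfate for 15 min at 37 °C and read by mutational profiling against an ethanol control.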

Scale: normalised reactivity, A and C only; low values point to paired or protected bases, higher values to unpaired ones.
One numbering serves 1G, 2G and 3G.
A position is written with its base.

- A169 (domain PBS): 1G capped low-salt dimer 0.70; 3G uncapped low-salt dimer 0.78; 3G capped low-salt dimer 0.68; 3G uncapped high-salt dimer 0.70
- A170 (domain PBS): 1G capped low-salt dimer 0.53; 3G uncapped low-salt dimer 0.49; 3G capped low-salt dimer 0.48; 3G uncapped high-salt dimer 0.47
- A171 (domain PBS): 1G capped low-salt dimer 0.46; 3G uncapped low-salt dimer 0.40; 3G capped low-salt dimer 0.39; 3G uncapped high-salt dimer 0.41
- C173 (domain PBS): 1G capped low-salt dimer 0.05; 3G uncapped low-salt dimer 0.05; 3G capped low-salt dimer 0.03; 3G uncapped high-salt dimer 0.03
- C175 (domain PBS): 1G capped low-salt dimer 0.05; 3G uncapped low-salt dimer 0.05; 3G capped low-salt dimer 0.03; 3G uncapped high-salt dimer 0.03
- A177 (domain PBS): 1G capped low-salt dimer 0.24; 3G uncapped low-salt dimer 0.27; 3G capped low-salt dimer 0.27; 3G uncapped high-salt dimer 0.23
- C179 (domain PBS): 1G capped low-salt dimer 0.77; 3G uncapped low-salt dimer 1.00; 3G capped low-salt dimer 0.96; 3G uncapped high-salt dimer 0.95
- A180 (domain PBS): 1G capped low-salt dimer 0.56; 3G uncapped low-salt dimer 0.67; 3G capped low-salt dimer 0.65; 3G uncapped high-salt dimer 0.63
- C185 (domain PBS): 1G capped low-salt dimer 0.45; 3G uncapped low-salt dimer 0.53; 3G capped low-salt dimer 0.53; 3G uncapped high-salt dimer 0.50
- C187 (domain PBS): 1G capped low-salt dimer 0.05; 3G uncapped low-salt dimer 0.05; 3G capped low-salt dimer 0.03; 3G uncapped high-salt dimer 0.03
- C188 (domain PBS): 1G capped low-salt dimer 0.09; 3G uncapped low-salt dimer 0.06; 3G capped low-salt dimer 0.05; 3G uncapped high-salt dimer 0.05
- C189 (domain PBS): 1G capped low-salt dimer 0.15; 3G uncapped low-salt dimer 0.09; 3G capped low-salt dimer 0.07; 3G uncapped high-salt dimer 0.07
- A191 (domain PBS): 1G capped low-salt dimer 0.39; 3G uncapped low-salt dimer 0.38; 3G capped low-salt dimer 0.38; 3G uncapped high-salt dimer 0.35
- A192 (domain PBS): 1G capped low-salt dimer 0.73; 3G uncapped low-salt dimer 0.87; 3G capped low-salt dimer 0.82; 3G uncapped high-salt dimer 0.81
- C193 (domain PBS): 1G capped low-salt dimer 0.77; 3G uncapped low-salt dimer 0.93; 3G capped low-salt dimer 0.91; 3G uncapped high-salt dimer 0.87
- A194 (domain PBS): 1G capped low-salt dimer 0.91; 3G uncapped low-salt dimer 1.14; 3G capped low-salt dimer 1.01; 3G uncapped high-salt dimer 1.01
- A198 (domain PBS): 1G capped low-salt dimer 0.62; 3G uncapped low-salt dimer 0.53; 3G capped low-salt dimer 0.51; 3G uncapped high-salt dimer 0.52
- C199 (domain PBS): 1G capped low-salt dimer 0.51; 3G uncapped low-salt dimer 0.50; 3G capped low-salt dimer 0.44; 3G uncapped high-salt dimer 0.45
- A203 (domain PBS): 1G capped low-salt dimer 0.51; 3G uncapped low-salt dimer 0.47; 3G capped low-salt dimer 0.47; 3G uncapped high-salt dimer 0.46
- A204 (domain PBS): 1G capped low-salt dimer 0.71; 3G uncapped low-salt dimer 0.62; 3G capped low-salt dimer 0.66; 3G uncapped high-salt dimer 0.64
- A205 (domain PBS): 1G capped low-salt dimer 0.35; 3G uncapped low-salt dimer 0.24; 3G capped low-salt dimer 0.29; 3G uncapped high-salt dimer 0.26
- C207 (domain PBS): 1G capped low-salt dimer 0.62; 3G uncapped low-salt dimer 0.50; 3G capped low-salt dimer 0.46; 3G uncapped high-salt dimer 0.50
- A209 (domain PBS): 1G capped low-salt dimer 0.43; 3G uncapped low-salt dimer 0.41; 3G capped low-salt dimer 0.38; 3G uncapped high-salt dimer 0.37
- A210 (domain PBS): 1G capped low-salt dimer 0.50; 3G uncapped low-salt dimer 0.43; 3G capped low-salt dimer 0.43; 3G uncapped high-salt dimer 0.39
- A211 (domain PBS): 1G capped low-salt dimer 0.47; 3G uncapped low-salt dimer 0.45; 3G capped low-salt dimer 0.45; 3G uncapped high-salt dimer 0.43
- A214 (domain PBS): 1G capped low-salt dimer 0.30; 3G uncapped low-salt dimer 0.29; 3G capped low-salt dimer 0.27; 3G uncapped high-salt dimer 0.28
- A215 (domain PBS): 1G capped low-salt dimer 0.65; 3G uncapped low-salt dimer 0.59; 3G capped low-salt dimer 0.60; 3G uncapped high-salt dimer 0.58
- A216 (domain PBS): 1G capped low-salt dimer 0.63; 3G uncapped low-salt dimer 0.69; 3G capped low-salt dimer 0.71; 3G uncapped high-salt dimer 0.70
- C218 (domain antiPAS): 1G capped low-salt dimer 0.05; 3G uncapped low-salt dimer 0.05; 3G capped low-salt dimer 0.04; 3G uncapped high-salt dimer 0.04
- C219 (domain antiPAS): 1G capped low-salt dimer 0.05; 3G uncapped low-salt dimer 0.05; 3G capped low-salt dimer 0.04; 3G uncapped high-salt dimer 0.04

The last 3 entries again:

| position | domain | 1G capped low-salt dimer | 3G uncapped low-salt dimer | 3G capped low-salt dimer | 3G uncapped high-salt dimer |
|---|---|---|---|---|---|
| A216 | PBS | 0.63 | 0.69 | 0.71 | 0.70 |
| C218 | antiPAS | 0.05 | 0.05 | 0.04 | 0.04 |
| C219 | antiPAS | 0.05 | 0.05 | 0.04 | 0.04 |

Source: Ye et al. 2022 (doi:10.1038/s41594-022-00746-2), supplementary data.